Measurements from patent US20090104233.
For at least one entry, the source does not settle the construct or the ends of the probe. For part of these data: Tags and fusion partners may be left off the protein sequences shown.

How the values were obtained:
Experiment in all cases: EMSA
[1] = target: MBP-C/EBP-ToxTC S249A (Vibrio cholerae) (UniProt A5F384); settings: 10 mM phosphate, 30 mM NaCl, pH 7.0, 37 C, purified recombinant protein, protein details: N-terminal MBP and C/EBP leucine zipper fusion, label: 32P 5' end (polynucleotide kinase)
[2] = target: MBP-C/EBP-ToxTC K203A (Vibrio cholerae) (UniProt A5F384); settings: 10 mM phosphate, 30 mM NaCl, pH 7.0, 37 C, purified recombinant protein, protein details: N-terminal MBP and C/EBP leucine zipper fusion, label: 32P 5' end (polynucleotide kinase)
[3] = target: T1, MBP-C/EBP-ToxTC (ToxT C-terminal domain) (Vibrio cholerae) (UniProt A5F384); settings: purified recombinant protein; label: 32P 5' end (polynucleotide kinase)
T1 sequence: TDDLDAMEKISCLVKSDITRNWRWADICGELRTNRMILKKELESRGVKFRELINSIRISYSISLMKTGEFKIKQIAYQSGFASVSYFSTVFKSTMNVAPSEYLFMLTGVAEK

[4] = not significantly altered vs WT

Measured: binding result

TCAACGTAAGTGTGTTATTAAAAAAATAAAAAAACACAGCAAAAAATGAGATCTGTC (double strand) [tcpAp toxbox probe]
binds: [1]; [4] | [2]; [4] | [3]

TTTATGCTAACTCGTTAAATTTTTAAAAATAAATTTAACAAAATGTATAAAGCGATTT (double strand) [acfAp toxbox probe]
binds: [1]; binding pattern similar to WT | [2]; binding pattern similar to WT | [3]
